In patent US20150104459A1, “Compositions and Methods for the Therapy and Diagnosis of Influenza” (published 2015):

B1: TCN-551 (5243_D01) (antibody, V domains shown)
VH: EVQLVQSGSEVKKPGESLKISCKGSGYSFSNYWIGWVRHMPGKGLEWMGIIYPGDSDTRYSPSFQGQVTMSADKSSSTVYLQWSSLKASDTAIYYCARRGGHSFGYGSGGDTHSEFDSWGQGTLVTVSS
VL: QSVLTQSPSVSAAPGQKVTISCSGSDSNIGDYFVCWYQHLPGKPPQLLIYENNKRPSGIPDRFSGSKSGTSATLGITGIQTGDEADYYCATWDGSLSAWVFGGGTKLTVL
B2: TCN-542 (5079_A16) (antibody, V domains shown)
VH: QVQLQESGPGLVKPSQTLSLTCTVSGGSISSGNYYWNWVRQHPGKGLEWIGYIYYRGSTFYNPSLKSRVTISIDTSKNQFSLRLSSVTAADTAVYYCAKDTRSSLDNYQYGMDVWGQGTTVTVSS
VL: QTVVTQEPSLTVSPGGTVTLTCASSTGAVTSSYFPNWFQQKPGQAPRPLIYSTTIRHSWTPARFSGSLLGGKAALTLSGVQPEDEADYYCLLYSGGDPVAFGGGTKLTVL
B3: TCN-540 (5060_F05) (antibody, V domains shown)
VH: QVQLVQSGGGVVQPGRSLRLSCAASGFTFSSYAMHWVRQAPGKGLEWVAIISYDGNDQYYTDSVKGRFTISRDSSKVYLQMHRLRPEDTAVYYCAKEFETSGYFHGSFDYWGQGILVTVSS
VL: QSALTQPASVSGSPGQSITISCTGTSSDVGGYNYVSWYQQHPGKAPKLLIYEVTNWPSGVSNRFSGSKSGNTASLTISGLQAEDEADYYCSSYAGSSTWVFGGGTRVTVL
B4: TCN-554 (5277_M05) (antibody, V domains shown)
VH: QVQLVQSGADLKKPGASVKVSCKASGYTFTDYYIHWVRQAPGQGLEWMGWINPESGDTKYAQKFQGRVTMTRDTSITTAYMELGRLRSDDTAVYYCARDVSTTWSWFAPWGQGTLVTVSS
VL: DIVMTQSPDSLAVSLGERATINCRSSQSIFHNSNNENYLAWYQQKPGQPPKLLIYWASTRESGVPDRFSGSGSGTDFTLTISSLQAEDVAVYFCQQYYNAPLTFGGGTKVEIK
B5: TCN-547 (5092_F11) (antibody, V domains shown)
VH: QVQLQESGPGLVKPSQTLSLTCTVSGDSISSVDHYWSWIRQHPVKGLEWIGFMYYSASTYYNPSLKSRVTISTDTSKNQFSLRLSSVTAADTAVYYCARGTCAGDCSLHYYYYGLDVWGQGRTVTVSS
VL: DIQMTQSPSSLSASVGDRVTITCRASQSISSYLNWYQHKPGKAPKVLMYAVSILQSGVPSRFSGSGSGADFTLTISSLQPEDFATYYCQQSYSSPLTFGGGTKVEIK
B6: TCN-546 (5089_L08) (antibody, V domains shown)
VH: QVQLQQWGAGLLKPSETLSLTCGVYGGSLSDYYWSWIRQPPGKGLEWIGEINHSGGTNYNPSLKRRVTISVDTSKKQFSLKMNSVTAADTAVYYCARGTDPDTEVYCRAGNCAAFDFWGQGTLVTVSS
VL: EIVLTQSPGTLSLSPGERATLSCRASHFVIGRAVAWYQQKPGQAPRLLIYGASSRATGIPDRFSGSGSGTDFTLTISRLETEDFAVFYCQHYGSSPRYAFGQGTKLEIK
B7: TCN-548 (5092_P01) (antibody, V domains shown)
VH: QVQLQESGPGLVKPSETLSLTCTVSSGPMSDYYWSWIRQPPGKGLEWIGHVSVSHGGRTKSNPSVMSRVTISVETSKNQFSLKLTSVTAADTAVYYCARLNYYDRSGYHSPDGPSNNWFDPWGQGTLVTVSS
VL: DIVMTQSPDSLAVSLGERATINCKSSQSVLYSSNNKNYLAWYQQKPGQPPKLLIYWASTRESGVPDRISGSGSGADFTLTISSLQAEDVAVYYCQQYFATPRTFGQGTKVEIK
B8: TCN-549 (5092_P04) (antibody, V domains shown)
VH: QVQLVQSGAEVKKPGASVKVSCKASGYTFTGYYMHWVRQAPGQGLEWMGWINPNSGDTNYAQKFQGRVTMTRDTSITTAYMELSSLRSDDTAVYYCARDSPYSSSWSFFDYWGQGPLVTVSS
VL: DIVMTQSPDSLAVSLGERATINCKSSQSVLYSSNNKSHLAWYQQKPGQPPKLLIYWASTRESGVPDRFSGSGSGTDFTLIISSLQAEDVAVYYCQQYYFSPLTFGGGTKVEIK
B9: TCN-550 (5096_F06) (antibody, V domains shown)
VH: QVQLQESGPGLVKPSETLSLTCTVSGASINSHYWSWIRQPPGKGLEWIGYVYYSGSTTYNPSLKSRVTLSVDTSKNQFSLNLSSVTAADTAFYYCARHPYDVLTGSGDWFDPWGQGTLVTVSS
VL: SYVLTQAPSVSVAPGQTARITCGGNAIGSKKVHWYQHKAGQAPVLVVYDDTDRPSGIPERFSGSNSWSTATLTINRVEAGDEADYYCQVWDFTIDHVVFGGGTKLTVL
B10: TCN-544 (5082_A19) (antibody, V domains shown)
VH: QVQLQESGPGLVKPSETLSLTCTVSRGSIGHYFWSWIRQPPGKGLEWIGYISYSGSTKYNPSLRSRVTISVDTSKNQFSLNLNSVTATDTALYYCAREDYDILTGAGPGMEVWGQGTTVTVSS
VL: QSMLTQPPSASGTPGQRVTISCSGSSSNIGSNTVNWFKHLPGTAPKLLIYRNDLRPSGVPDRFSGSKSGTSASLAISGLQSEDEADYYCATWDDSLNGFYVFGTGTKVTVL
B11: TCN-539 (5056_A08) (antibody, V domains shown)
VH: QVQLVESGGGVVQPGRSLRLSCAASEITFITYAMHWVRQAPGKGLEWVALISDDGSNKFYADSVKGRFTISRDNSKNTLYLQMNSLRAEDTAAYYCAREGVYFDSGTYRGYFDYWGQETLVTVSS
VL: EIVLTQSPATLSLSPGERATLSCRASQSVSSYLAWYQQKPGQAPRLLIYDASNRATGIPARFSGSGSGTDFTLTISSLEPEDFAVYYCQQRSHWPPITFGQGTRLEIK
B12: TCN-538 (3206_O17) (antibody, V domains shown)
VH: QITLKESGPTLVKPTQTLTLTCVFSGFSLSITGVRVGWIRQPPGKALEWLALISWDDEKHYSPSLQSRLTITKDTSKNQVVLTMTNLDPVDTATYYCARSTDRGHVLRYFGWMLPGDAFDVWGQGTMVTVSS
VL: DIVMTQSPDFLPVSLGERATINCKSSQRVLYSSNNKNYLAWYQLKPGQPPKLIIYWASTRESGVPDRFSGSGSGTEFTLTISSLQAEDVAVYYCQQYYSRPYTFGQGTKLEIK
B13: TCN-531 (5091_H13) (antibody, V domains shown)
VH: EVQLVESGGDLVQPGRSLKLSCTGSGFTFGDYGVTWVRQAPGKGLEWVGFIRTRPWGGTADTAASVKGRFTISRDDSKSLAYLQMNSLKTEDTAVYYCCRDAPPNVEVASMTNWYFDLWGRGTLVTVSS
VL: DIQLTQSPSSLSASVGDRVTITCRASQGILNCLAWYQQKPGKVPNLLMYAASTLQSGVPSRFSGSGFGTDFTLTISSLQPEDVATYYCQTYGGVSTFGGGTKVEIR
B14: TCN-552 (5249_I23) (antibody, V domains shown)
VH: QVQVVQSGAEVKKPGSSVRVSCQASGGTFMNYAIIWVRRAPGQGLEWMGGIIPVFPTPNYAQMFQGRVTISTDESRSTSFLELTNLRYEDTAVYYCARRIYHGGNSGFDFWGQGTLVTVSS
VL: EIVLTQSPATLSLSPGERATLSCRASQSVGNYLAWYQQKPGQAPRLLIYDSSNRAPGIPARFSGSGSGTDFTLTISSLAPEDFAVYYCQQRSKWPPMYSFGHGTKLEIK
B15: TCN-543 (5081_G23) (antibody, V domains shown)
VH: QVHLVQSGAEVRKPGDSVKVSCKTSGYTFSTYPVAWVRQVPGQGLEWMGWISTYNGNTNFAQNFQGRVTLTTDTTTNTAYMEVRSLKFDDTAVYYCARVEGSYRDFWNNQNRFDPWGQGTLVTVSS
VL: SYVLTQPPSVSVAPGQTARISCGGSNIGGKSVHWYQQKPGQAPVLVVYDDSGRPSGIPERFSGSNSGDTATLTISRVEAGDEADYFCQVWDNFGGVFGTGTKVTVL
B16: TCN-545 (5082_I15) (antibody, V domains shown)
VH: QVQLQQWGAGLLKPSETLSLSCAVFGGSFSDYYWTWIRQPPGKGLEWIGEIKHSGRTNYNPSLESRVTISVDTSKNQFSLKLSSVTAADTAIYYCARGTDPDTEGYCRSGSCSAFDFWGQGTLVTVSS
VL: EIVLTQSPGTLSLSPGERATLSCRASHFVNYRSLAWYQQTPGQVPRLLIYGASTRATGIPDRFSGSGSGTDFTLTISRLEPEDFAVYFCQQYGGSPRYTFGQGTRLEIK
B17: TCN-557 (5081_A04) (antibody, V domains shown)
VH: QVQLVQSGAEVKKPGASVKVSCKASGHTFTGYYIHWVRQAPGQGLEWMGWINPDSGATSSAQNFQGRVTMTGDTSSSTAYMELSRLSFDDTAVYYCARVLFTSPFDFWGEGTLVTVSS
VL: QAVVTQEPSLAVSPGGTVTLTCGSSTGAVTRGHYPYWFQQKPGQAPRALIYDSAGNRHSWTPARFSGSLLGGKAALTLSGAQPEDEAEYYCLLSYSGVWVFGGGTKLTVL
B18: TCN-558 (5248_H10b) (antibody, V domains shown)
VH: QVQLVQSGSEVKKPGTSVKVSCTASGSVFTNYGISWVRQAPGQGLEWMGGIIPLFGAAKYAQKFQGRVTITADESTKTVYMELSRLTSKDTAIYFCAKAPRVYEYYFDQWGQGTPVTVSS
VL: EIVMTQFPATLSVSPGERVTLSCRASQSVSNNLAWYQQKPGQPPRLLIYDASTRATGVPAKFSGTGSGTEFTLSISSLQSEDFAVYYCQQYHNWPPSYSFGLGTKLEIK

What was measured:
[1] = biological target: recombinant homotrimeric HA, A/California/4/09 H1N1 (Influenza A virus A/California/4/09 …); experiment: trimeric HA microarray; transfection supernatant set 5
[2] = biological target: recombinant homotrimeric HA, A/Solomon Islands/3/06 H1N1 (Influenza A virus A/Solomon …); experiment: as above
[3] = biological target: recombinant homotrimeric HA, A/Vietnam/1203/04 H5N1 (Influenza A virus A/Vietnam/1203/04 …)
[4] = biological target: recombinant homotrimeric HA, A/swine/Ontario/01911-2/99 H4N6 (Influenza A virus …); experiment: trimeric HA microarray; transfection supernatant set 5
[5] = biological target: recombinant homotrimeric HA, A/Wisconsin/67/05 H3N2 (Influenza A virus A/Wisconsin/67/05 …)
[6] = biological target: recombinant homotrimeric HA, A/Indonesia/5/05 H5N1 (Influenza A virus A/Indonesia/5/05 …)

Binder | Trimeric HA Binding: RLU [1] [RLU] | Trimeric HA Binding: RLU [2] [RLU] | Trimeric HA Binding: RLU [3] [RLU] | Trimeric HA Binding: RLU [4] [RLU] | Trimeric HA Binding: RLU [5] [RLU] | Trimeric HA Binding: RLU [6] [RLU]
B1 | 46100 | 43500 | 41900 | – | – | –
B2 | – | – | – | 14300 | – | –
B3 | 984 | – | – | – | 53000 | 2570
B4 | – | – | – | – | 25300 | –
B5 | – | 1080 | – | – | 6970 | –
B6 | 1080 | – | – | – | 28500 | 40900
B7 | 818 | 750 | – | – | – | –
B8 | 622 | 640 | – | – | 51600 | –
B9 | 628 | 758 | – | – | 37800 | 9000
B10 | 706 | 997 | – | – | – | –
B11 | – | 871 | – | – | 58800 | –
B12 | 16000 | 1960 | – | – | – | –
B13 | – | – | – | – | 4160 | –
B14 | 23500 | 48600 | 18500 | 9080 | 18500 | 43400
B15 | – | 43500 | – | – | 37000 | –
B16 | – | – | – | – | 32000 | –
B17 | 44400 | – | 21300 | 41500 | 46100 | 22200
B18 | 20200 | 36100 | – | 10000 | 26600 | –
